Tests used:
[1] = Bioavailability of SP16 in mouse brain after intranasal delivery, LC/MS-MS; format: in vivo; details: adult C57BL/6J mice, 10 µg/kg intranasal
Description: C57BL/6J mice (Jackson Laboratory, Bay Harbor, ME, USA) were bred in the animal facility at Florida International University. Mice were placed 3–5 per cage and maintained in a controlled temperature and humidity room. The animals were cared for in accordance with the Principles of Animal Care outlined by the National Institutes of Health and approved by the Institutional Animal Care and Use Committee of Florida International University. Protocol Approval: IACUC-21-007-CR01. The EcoHIV-NDK plasmid used was provided by Dr. David Volsky at Mount Sinai school of medicine. The plasmid was transfected in HEK293T cells to generate EcoHIV stocks as previously described. For the in vivo experiments, male mice between the ages of 4–6 months were administrated 1 mL of either saline or 1 × 10^6 pg p24 units of EcoHIV by intraperitoneal (IP) cavity. After 3–4 weeks, animals received cART daily via IP administration. The cART regimen consisted of Emtricitabine, Ritonavir, and Atazanavir at a concentration of 100 mg/kg each, based on previously published literature by others. […] Bioavailability of SP16 in the brain was monitored with LC-MS/MS using 703 (triple charged) parent ion and its two daughter ions 129.1 and 84.1. […]
acetonitrile containing Oxazepam-D5 and subsequently quantified by high-performance LC/MS-
MS. About 125 nmol/L of SP16 (or 40% of the original concentration) was detected in brain […]

[2] = tested on: primary mixed glia cultures; assay: Immunoblotting of LRP-1, NF-κB and Akt in mouse glia; format: cell-based, C57BL/6J mice
Procedure: Proteins in brain cell lysates and postmortem brain homogenates were separated by SDS-PAGE, transferred to PVDF membranes, and subsequently incubated with primary antibodies from Santa Cruz Biotechnology (Dallas, TX, USA), including NF-κB at 1:200 dilution (catalog # sc-8008) and β-actin at 1:200 dilution (catalog # sc-47778). Antibodies from Abcam (Boston, MA, USA), including Akt at dilution 1:500 (catalog # ab-38449) and LRP-1 at dilution 1:50,000 (catalog # ab-92544). After primary antibodies, membranes were incubated with horseradish peroxidase-conjugated secondary antibodies followed by exposure to SuperSignal West Femto Substrate from Thermo Scientific (Waltham, MA, USA). Membranes were visualized using a ChemiDoc imaging system from Bio-Rad (Hercules, CA, USA) and protein expression was calculated using Image J software from NIH (Bethesda, MD, USA).
C57BL/6J mice (Jackson Laboratory, Bay Harbor, ME, USA) were bred in the animal facility at Florida International University. Mice were placed 3–5 per cage and maintained in a controlled temperature and humidity room. The animals were cared for in accordance with the Principles of Animal Care outlined by the National Institutes of Health and approved by the Institutional Animal Care and Use Committee of Florida International University. Protocol Approval: IACUC-21-007-CR01. The EcoHIV-NDK plasmid used was provided by Dr. David Volsky at Mount Sinai school of medicine. The plasmid was transfected in HEK293T cells to generate EcoHIV stocks as previously described. For the in vivo experiments, male mice between the ages of 4–6 months were administrated 1 mL of either saline or 1 × 10^6 pg p24 units of EcoHIV by intraperitoneal (IP) cavity. After 3–4 weeks, animals received cART daily via IP administration. The cART regimen consisted of Emtricitabine, Ritonavir, and Atazanavir at a concentration of 100 mg/kg each, based on previously published literature by others. A subset of cART treated animals received SP16 every other day at concentration of 10 μg/kg, via the intranasal route, as described previously by us. After treatments (at day 5), mice were sacrificed and whole brains, excluding the brainstem and the olfactory bulb, were collected. Half of the recovered brain hemisphere was used for immunohistochemistry and LC-MS/MS while the other half was homogenized and used for biochemical assays. For protein biochemical assays, postmortem brains were homogenized in cell lysis buffer (Thermo Scientific, Waltham, MA, USA) using a bead-beater apparatus (MagNA Lyser, Roche, Indianapolis). Bioavailability of SP16 in the brain was monitored with LC-MS/MS using 703 (triple charged) parent ion and its two daughter ions 129.1 and 84.1. […]

primary human astrocytes = assay: ELISA of inflammatory molecules in astrocyte supernatant; format: cell-based; details: for reduction of HIV-induced MCP-1: 1 μg/mL SP16
endothelial cells = assay: Cell viability, MTT and trypan blue, endothelial cells; format: cell-based, human; details: range of SP16 concentrations, 24 and 96 h
Procedure: Cell proliferation and survival were measured using an MTT (3-[4,5-dimethylthiazol-2-yl]-2,5 diphenyl tetrazolium bromide) cell growth assay kit from MilliporeSigma (Temecula, CA, USA). Human brain cells at a cell density of 3 × 10^4 cells/well, were exposed to SP16 at different concentrations. After 24 and 96 h, 10 μL of 12 mM MTT solution was added to each well. After 4 h of incubation, DMSO was added to dissolve the formazan crystals. The absorbance in each well was read at 570 nm with a reference wavelength of 630 nm on a Synergy HTX microplate reader from BioTek (Winooski, VT, USA).
Cell viability was measured using trypan blue exclusion assay, which allows for the identification of live (unstained) and dead (blue) cells. Human brain cells were grown to confluency in a 24-well plate and exposed to SP16 at increasing concentrations. After 24 and 96 h, cells were harvested using enzyme-free cell dissociation buffer followed by centrifugation. Pellets were re-suspended in their specific media, and 10 μL of suspensions were diluted in an equal volume of 0.40% trypan blue dye from Bio-Rad (catalog #145-0013, Hercules, CA, USA). 10 µL was loaded on a counting chamber, and a TC20 automated cell counter determined the percentage of live cells from Bio-Rad (Hercules, CA, USA). Cell viability was expressed as the percentage of live cells out of total cells.

[3] = mouse glia, 25 and 250 μg/mL SP16
[4] = astrocytes, 100 µg/mL SP16, 12 h, without LRP-1 silencing

## CCCC[C@H](NC(=O)[C@H](CC(C)C)NC(=O)[C@H](Cc1ccccc1)NC(=O)[C@@H](NC(=O)[C@H](Cc1ccccc1)NC(=O)[C@@H]1CCCN1C(=O)[C@H](CCCCN)NC(=O)[C@H](CC(N)=O)NC(=O)[C@H](Cc1ccccc1)NC(=O)[C@H](CCCCN)NC(=O)[C@@H](NC(C)=O)C(C)C)C(C)C)C(=O)N[C@H](C(=O)N[C@@H](CCC(=O)O)C(=O)N[C@@H](CCC(N)=O)C(=O)N[C@@H](CC(N)=O)C(=O)N[C@H](C(=O)N[C@@H](CCCCN)C(N)=O)[C@@H](C)O)[C@@H](C)CC [SP16]
[1]; 24 hours, N=2
  SP16 in brain homogenates as share of the original concentration: ~40%
[1]; mouse, in vivo, inhaled or intranasal, 10 ug/kg, 20 μL in each nostril, acetonitrile extraction, N=2, read-out: SP16 detected in brain homogenates
  level at time molar at 24 h: ~125 nM
[2]; 250 μg/mL SP16, compared to infected glia without SP16
  reduction of NF-κB expression level: more than 75%
[2]; mouse glia, 250 μg/mL SP16
  expression of Akt: significantly induced
[2]; [3]
  expression levels of LRP-1: significantly downregulated
  expression levels of NF-κB: significantly downregulated
Primary human astrocytes; HIV-infected astrocytes, 6 h
  reduction of HIV-induced MCP-1: 65%
Primary human astrocytes; HIV-infected astrocytes, 12 h
  reduction of HIV-induced MCP-1: 63%
Primary human astrocytes; HIV-infected astrocytes, 12 h, SP16 at 1 μg/mL
  HIV-induced IL-6: Attenuation
Primary human astrocytes; HIV-infected astrocytes, 12 h, SP16 at 25 μg/mL
  HIV-induced IL-8: Attenuation
Primary human astrocytes; [4]
  secreted levels of IL-6: significantly decreased
  secreted levels of IL-8: significantly decreased
  secreted levels of MCP-1: significantly decreased
Primary human astrocytes; astrocytes, siRNA against LRP-1, 48 h post-transfection, SP16 100 µg/mL, 12 h
  secretion levels of MCP-1, IL-6 and IL-8 after silencing the LRP-1 gene: reversal
Primary human astrocytes; primary human astrocytes, concentration-dependent, 6 and 12 h post-treatment, ELISA
  attenuation of secretion of MCP-1: more than 90%
Endothelial cells
  cell viability: did not decrease cell viability
